Test: Antiviral activity against oseltamivir-resistant Influenza A virus (A/WSN/1933(H1N1)) harboring neuraminidase H275Y mutant infected in MDCK cells assessed as protection against viral infection-mediated cytopathic effect after 48 to 72 hrs

With `CCCCOP(=O)(O)C1=C[C@@H](OC(CC)CC)[C@H](NC(C)=O)[C@@H](N)C1` as the compound, how does the EC50 read?
Its EC50 is 9150 nM.

For `CCC(CC)O[C@@H]1C=C(P(=O)(O)OCCCc2ccccc2)C[C@H](NC(=N)N)[C@H]1NC(C)=O`, which EC50 is on record?
The EC50 was 224 nM.

With `CCCCCCOP(=O)(O)C1=C[C@@H](OC(CC)CC)[C@H](NC(C)=O)[C@@H](NC(=N)N)C1` as the compound, how does the EC50 read?
The EC50 was 262 nM.

With `CCCCOP(=O)(O)C1=C[C@@H](OC(CC)CC)[C@H](NC(C)=O)[C@@H](NC(=N)N)C1` as the compound, how does the EC50 read?
Its EC50 is 97 nM.

Source: ChEMBL document CHEMBL3259643 (Eur J Med Chem, 2014)
